The nature of the assay: Resistance ratio of EC50 for antiviral activity against HCV J6/JFH/JC1 harboring A156T mutant infected in human Huh7.5 cells to EC50 for antiviral activity against wild-type HCV J6/JFH/JC1 infected in human Huh7.5 cells. It counts as functional.

As to `CCC[C@H](NC(=O)[C@@H]1[C@H]2CCC[C@H]2CN1C(=O)[C@@H](NC(=O)[C@@H](NC(=O)c1cnccn1)C1CCCCC1)C(C)(C)C)C(=O)C(=O)NC1CC1`, the Ratio EC50 amounted to 31.

Values taken from ChEMBL document CHEMBL4715793, “Design and Synthesis of Cajanine Analogues against Hepatitis C Virus through Down-Regulating Host Chondroitin Sulfate N-Acetylgalactosaminyltransferase 1” (J Med Chem, 2016).
